# HIV-1 NL4-3 point mutations in RT: replication capacity

Values reported by Al-Mawsawi et al. 2014 (doi:10.1186/s12977-014-0124-6).

Protein: RT of HIV-1 NL4-3, numbered from its first residue.
Effects on overlapping genes or RNA elements are not listed.

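Random point mutant libraries of HIV-1 NL4-3, one for each of seven fragments, were passaged in CEM T lymphocytes. The RC index is the frequency of a change after passage round 2 divided by its frequency in the plasmid library.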

A higher RC index is a better tolerated change; approximate classes are lethal up to 0.1, attenuated to 0.2, tolerated above. Substitutions are written as wild-type residue, site number, new residue. An index over 1, which the authors read as above wild type, was rare (1.9% of all changes in the genome). Base changes are numbered along pNL4-3. Since each clone held several changes (about five per kb), neutral changes can read low.

{"mutation": "W266R", "base": "T3345A", "replication capacity index": 0.00347}
{"mutation": "A267T", "base": "G3348A", "replication capacity index": 0.312}
{"mutation": "S268G", "base": "A3351G", "replication capacity index": 0.0138}
{"mutation": "I270V", "base": "A3357G", "replication capacity index": 0.0209}
{"mutation": "I270F", "base": "A3357T", "replication capacity index": 0.0149}
{"mutation": "I270S", "base": "T3358G", "replication capacity index": 0.0549}
{"mutation": "I270M", "base": "T3359G", "replication capacity index": 0.0489}
{"mutation": "Y271C", "base": "A3361G", "replication capacity index": 0.0185}
{"mutation": "A272S", "base": "G3363T", "replication capacity index": 0.0556}
{"mutation": "A272E", "base": "C3364A", "replication capacity index": 0.0572}
{"mutation": "G273V", "base": "G3367T", "replication capacity index": 0.116}
{"mutation": "I274T", "base": "T3370C", "replication capacity index": 0.0279}
{"mutation": "K275E", "base": "A3372G", "replication capacity index": 0.0709}
{"mutation": "K275T", "base": "A3373C", "replication capacity index": 0.0476}
{"mutation": "K275R", "base": "A3373G", "replication capacity index": 0.0184}
{"mutation": "K275I", "base": "A3373T", "replication capacity index": 0.0132}
{"mutation": "V276L", "base": "G3375T", "replication capacity index": 0.0319}
{"mutation": "R277K", "base": "G3379A", "replication capacity index": 0.335}
{"mutation": "Q278K", "base": "C3381A", "replication capacity index": 0.101}
{"mutation": "C280R", "base": "T3387C", "replication capacity index": 0.0168}
{"mutation": "L282F", "base": "C3393T", "replication capacity index": 0.0610}
{"mutation": "L283F", "base": "C3396T", "replication capacity index": 0.251}
{"mutation": "L283P", "base": "T3397C", "replication capacity index": 0.0492}
{"mutation": "G285E", "base": "G3403A", "replication capacity index": 0.329}
{"mutation": "G285V", "base": "G3403T", "replication capacity index": 0.0666}
{"mutation": "T286N", "base": "C3406A", "replication capacity index": 0.0969}
{"mutation": "K287Q", "base": "A3408C", "replication capacity index": 0.0816}
{"mutation": "K287N", "base": "A3410T", "replication capacity index": 0.0635}
{"mutation": "A288E", "base": "C3412A", "replication capacity index": 0.194}
{"mutation": "L289Q", "base": "T3415A", "replication capacity index": 0.0193}
{"mutation": "V292A", "base": "T3424C", "replication capacity index": 0.0142}
{"mutation": "V293L", "base": "G3426C", "replication capacity index": 0.0393}
{"mutation": "V293L", "base": "G3426T", "replication capacity index": 0.0441}
{"mutation": "V293A", "base": "T3427C", "replication capacity index": 0.138}
{"mutation": "P294R", "base": "C3430G", "replication capacity index": 0.335}
{"mutation": "L295Q", "base": "T3433A", "replication capacity index": 0.0127}
{"mutation": "T296P", "base": "A3435C", "replication capacity index": 0.0661}
{"mutation": "T296K", "base": "C3436A", "replication capacity index": 0.168}
{"mutation": "E297K", "base": "G3438A", "replication capacity index": 0.504}
{"mutation": "E298D", "base": "A3443C", "replication capacity index": 0.0675}
{"mutation": "E298D", "base": "A3443T", "replication capacity index": 0.00909}
{"mutation": "E300K", "base": "G3447A", "replication capacity index": 0.0850}
{"mutation": "E302D", "base": "A3455T", "replication capacity index": 0.0108}
{"mutation": "L303P", "base": "T3457C", "replication capacity index": 0.0218}
{"mutation": "E305G", "base": "A3463G", "replication capacity index": 0.0520}
{"mutation": "E305V", "base": "A3463T", "replication capacity index": 0.0191}
{"mutation": "N306D", "base": "A3465G", "replication capacity index": 0.0340}
{"mutation": "N306S", "base": "A3466G", "replication capacity index": 0.0328}
{"mutation": "R307K", "base": "G3469A", "replication capacity index": 0.216}
{"mutation": "Y318F", "base": "A3502T", "replication capacity index": 0.0223}
{"mutation": "D320V", "base": "A3508T", "replication capacity index": 0.0497}
{"mutation": "S322T", "base": "T3513A", "replication capacity index": 0.0323}

Excerpt, the final 7 entries:

mutation	base	replication capacity index
E305V	A3463T	0.0191
N306D	A3465G	0.0340
N306S	A3466G	0.0328
R307K	G3469A	0.216
Y318F	A3502T	0.0223
D320V	A3508T	0.0497
S322T	T3513A	0.0323